In ChEMBL document CHEMBL3286203, “Reactive oxygen species (ROS) inducible DNA cross-linking agents and their effect on cancer cells and normal lymphocytes” (J Med Chem, 2014):

Assays:
[1] = Induction of [32P]-labeled 49-mer oligonucleotide duplex DNA 12 interstrand cross-linking (unknown origin) at purine nucleotide site using compound radiolabeled at 5' of 12a in phosphate buffer at pH 7 at 90 degC after 30 mins by PAGE
[2] = Induction of [32P]-labeled 49-mer oligonucleotide duplex DNA 12 interstrand cross-linking (unknown origin) at purine nucleotide site using compound radiolabeled at 5' of 12b in phosphate buffer at pH 7 at 90 degC after 30 mins by PAGE
[3] = Induction of [32P]-labeled 49-mer oligonucleotide duplex DNA 12 interstrand cross-linking (unknown origin) at purine nucleotide site using compound radiolabeled at 3' of 12a in phosphate buffer at pH 7 at 90 degC after 30 mins by PAGE
[4] = Induction of [32P]-labeled 49-mer oligonucleotide duplex DNA 12 interstrand cross-linking (unknown origin) at purine nucleotide site using compound radiolabeled at 5' of 12a at 90 deg C after 30 mins by PAGE in presence of piperidine
[5] = Induction of [32P]-labeled 49-mer oligonucleotide duplex DNA 12 interstrand cross-linking (unknown origin) at purine nucleotide site using compound radiolabeled at 5' of 12b at 90 deg C after 30 mins by PAGE in presence of piperidine
[6] = Induction of [32P]-labeled 49-mer oligonucleotide duplex DNA 12 interstrand cross-linking (unknown origin) at purine nucleotide site using compound radiolabeled at 3' of 12a at 90 deg C after 30 mins by PAGE in presence of piperidine

Measured: Activity

Oc1ccc(N(CCCl)CCCl)cc1
active: [1] | [2] | [3] | [4] | [5] | [6]

Active and inactive are the calls of the source.
